Target: Acetylcholinesterase (Homo sapiens) (UniProt P22303)
Test: Reactivation of VX-inhibited human recombinant AChE assessed as reactivation rate constant incubated for 1 to 10 mins by spectrophotometry based Ellman's assay

Sequences of proteins named here, by UniProt entry; tags and fusion partners are left off. A change or cut given only in a name is not applied to a line headed by its entry.
UniProt P22303: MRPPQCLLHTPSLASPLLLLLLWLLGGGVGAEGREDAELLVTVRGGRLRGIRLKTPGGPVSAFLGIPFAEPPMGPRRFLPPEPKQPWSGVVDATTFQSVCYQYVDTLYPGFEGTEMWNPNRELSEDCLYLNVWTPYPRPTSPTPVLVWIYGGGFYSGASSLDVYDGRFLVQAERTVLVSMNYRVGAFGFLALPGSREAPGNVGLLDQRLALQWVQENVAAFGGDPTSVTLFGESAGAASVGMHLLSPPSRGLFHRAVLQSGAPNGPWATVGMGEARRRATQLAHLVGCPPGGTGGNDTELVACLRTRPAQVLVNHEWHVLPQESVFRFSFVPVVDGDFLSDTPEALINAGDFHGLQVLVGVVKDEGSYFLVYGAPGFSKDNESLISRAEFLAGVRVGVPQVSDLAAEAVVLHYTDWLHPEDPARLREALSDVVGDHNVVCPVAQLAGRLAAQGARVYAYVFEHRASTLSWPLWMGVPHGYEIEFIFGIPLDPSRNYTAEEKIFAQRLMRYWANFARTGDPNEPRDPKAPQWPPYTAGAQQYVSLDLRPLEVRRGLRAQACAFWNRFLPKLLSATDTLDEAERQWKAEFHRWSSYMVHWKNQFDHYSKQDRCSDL

Structure (SMILES)	K
O/N=C/c1nc(CCCCNc2c3c(nc4ccc(Cl)cc24)CCCC3)ccc1O	0.29 min⁻¹
O/N=C/c1ccccn1	0.1 min⁻¹
